Assay results from PMC5783950, “Shielding and activation of a viral membrane fusion protein” (2018).
Values joined by “and” are separate entries in the source; they are usually repeats but may differ in a detail not shown here. Identical values can stand only once.

Molecular target: Rift Valley fever virus Gn-Gc heterodimer (on the virion) (Rift Valley fever virus (Clone 13))
Test: cryo-EM structure

For “Rift Valley fever virus Gn-Gc heterodimer (on the virion) (complex)”, the stoichiometry N was 5 and 6.
